A mixed list of measured activities; the numbers were collected in NIAID ChemDB.

Common to all: growth or infection tests; species: HIV-1; read-out: EC90

a–b is a range or a potency band.

SMILES	method	conditions	strain or isolate	mutations	cell line	result
CCn1nc(Cc2ccc(F)c(F)c2)cc1C1CCN(C[C@H]2CN([C@@H](C(=O)O)C(C)C)C[C@@H]2c2cccc(F)c2)CC1	β-galactosidase	-	BaL	-	HeLa	0.0074 µM
C1CNCCNCCCN[C@H]([C@@H]2CNCCCNCCNCCCN2)CNC1	cytopathic effect / MTT	-	HE	-	MT-4	0.87 µM
Cc1cn([C@H]2C[C@H](N=[N+]=[N-])[C@@H](CO)O2)c(=O)[nH]c1=O	cytopathic effect	-	IIIB	-	ATH8	<0.25 µg/mL
CC[C@@H](C)[C@H](C(=O)O)N1C[C@H](CN2CCC(c3cc(Cc4ccc(OC(F)F)cc4)nn3CC)CC2)[C@@H](c2cccc(F)c2)C1	β-galactosidase	50% human serum	BaL	-	HeLa	0.011 µM
O=c1[nH]cnc2c1ncn2[C@H]1CC[C@@H](CO)O1	p24	-	XM-Q151M	RT-A62V V75I F77C F116Y Q151M	PBMC	106 µM
CC[C@@H](C)[C@H](C(=O)O)N1C[C@H](CN2CCC(c3cc(Cc4ccc5ccccc5c4)nn3CC)CC2)[C@@H](c2cccc(F)c2)C1	β-galactosidase	-	BaL	-	HeLa	<0.00014 µM
C1CNCCNCCCN(CCCN2CCCNCCNCCCNCC2)CCNC1	p24 / ELISA	-	IIIB	-	PBL	3.73 µM
Cc1cn([C@H]2C[C@H](N=[N+]=[N-])[C@@H](CO)O2)c(=O)[nH]c1=O	p24	-	NL-XM WT	-	MT-4	0.02 µM
Cc1cn([C@H]2C[C@H](N=[N+]=[N-])[C@@H](CO)O2)c(=O)[nH]c1=O	p24 / ELISA	-	-	4xAZT	Primary T lymphocytes	53.3 µM
Cc1cn([C@H]2C[C@H](N=[N+]=[N-])[C@@H](CO)O2)c(=O)[nH]c1=O	-	-	A018A	-	PBMC	0.19–0.34 µg/mL
O=c1[nH]cnc2c1ncn2C1CC[C@@H](CO)O1	p24 / ELISA	-	LAI	-	Primary T lymphocytes	55.4 µM
CC(C)CN(C[C@@H](O)[C@H](Cc1ccccc1)NC(=O)O[C@H]1CCOC1)S(=O)(=O)c1ccc(N)cc1	p24	-	NL4-3	PR-N88D	MT-4	0.02 µM
CCn1nc(Cc2ccc(S(=O)(=O)c3ccccc3)cc2)cc1C1CCN(C[C@H]2CN([C@@H](C(=O)O)C(C)(C)C)C[C@@H]2c2cccc(F)c2)CC1	β-galactosidase	-	BaL	-	HeLa	<0.00014 µM
O=C1Nc2ccc(Cl)cc2[C@@](C#CC2CC2)(C(F)(F)F)O1	p24 / ELISA	-	-	M184V	Primary T lymphocytes	0.08 µM

Blank or dashed fields: not listed here. Rows are shuffled and stem from different studies. ECn is the concentration giving n% inhibition of infection, replication or growth.